PubChem BioAssay AID720547 (The Scripps Research Institute Molecular Screening Center, 2013)
The source made the active and inactive calls.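 The calls were made as follows: active = compound flagged as a likely artifact in this counterscreen, with IC50 of 10 µM or lower; inactive = IC50 above 10 µM.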

System: HEK293 Gal4-VP16 luciferase reporter counterscreen, luminescence
Test: Gal4-VP16 luciferase reporter inhibitors, dose response, counter-screen for COUP-TFII inhibitor project, cell-based, luminescence, HEK293 (AID 720547);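 also: potency for lowering the luciferase signal driven by Gal4-VP16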

CC(=O)OC1C(=O)OCC23CCC4(C)OC4C2OC2CC(OC(=O)C=CC=CC(=O)OCCC1C)C3(C)C21CO1 (stereo unspecified)
IC50: inactive: > 85.5 µM
